The text below walks through data of paper PMC6191539, “NadA3 Structures Reveal Undecad Coiled Coils and LOX1 Binding Regions Competed by Meningococcus B Vaccine-Elicited Human Antibodies” (mBio, 2018).

The assay addresses T1, full-length human LOX-1 fused to yellow fluorescent protein, expressed on CHO-K1 cells (human).
T1 construct: LOX-1 (low-density oxidized lipoprotein lectin-like receptor 1), human, full length, on transfected CHO-K1 cells; pEYFP-N1 usually places the YFP at the C-terminus of the insert (surmise); also called low-density oxidized lipoprotein lectin-like receptor 1; LOX-1-expressing cells; source: CHO-K1 cells, transiently transfected (pEYFP-N1 vector), on live cells
As to the kind of experiment: flow cytometry on cells; CHO-K1 cells transiently expressing human LOX-1-YFP mixed with NadA3 protein (200 µg/ml) for 30 min at 37°C; detected with mouse polyclonal anti-NadA3 and APC-conjugated secondary antibody. Conditions: one partner purified. In general terms: In flow cytometry, cells or beads pass a laser one at a time.

B1: NadA3 […] E62A D63A double mutant (domain or fragment)
chain: not shown
notes: NadA3, N. meningitidis serogroup B strain 2996, […], […] with E62A and D63A; also called NadA3 E62A D63A
With B1, the “percent doubly positive cells (LOX-1 and NadA)” value was 54.3%.

B2: NadA3 […] N43A mutant (domain or fragment)
chain: not shown
notes: NadA3, N. meningitidis serogroup B strain 2996, […], […] with N43A
Regarding B2, the “percent doubly positive cells (LOX-1 and NadA)” value was determined as 54.3%.
